Molecular target: SARS-COV-2 3CLpro/Mpro protease (Severe acute respiratory syndrome coronavirus 2 (2019-nCoV) (SARS-CoV-2), UniProt P0DTD1)
Assay: Inhibitory effect on SARS-COV-2 3CLpro/Mpro protease by fluorescence resonance energy transfer
Conditions: read-out: IC50 (nM), Inhibition on SARS-CoV-2 3CLpro/Mpro protease, activity intervals A-D
Description: Test Example 1: Evaluation of the Inhibitory Effect of the Compound of the Application on SARS-COV-2 3CL^pro/M^pro Target
In this experiment, the activity of SARS-COV-2 3CL^pro/M^pro protease was detected by fluorescence resonance energy transfer, and the half inhibitory concentration IC50 of the compound on SARS-COV-2 3CL^pro/M^pro protease was obtained.
Novel coronavirus M^pro/3CL^pro inhibitor screening kit (P0315M), purchased from Beyotime Biotechnology:
• 1) The enzyme solution was prepared with reaction buffer, 49.5 μL enzyme solution was added into each well, and 49.5 μL reaction buffer was added into Min-well. • 2) The IC50 of the compound was detected, and the final concentration of the test was starting from 10 μM, 3-fold dilution, 10 concentrations, and each concentration was set up for multiple well testing. […]

Row | SMILES | IC50 [nM]
1 | O=C(c1cc([N+](=O)[O-])cc(Cl)c1N[C@@H]1CCCN(C(=O)c2cncc3ccccc23)C1)N1CCCCC1 | 10 to 50
2 | CNc1cncc(C(=O)N2CC(Nc3c(C(=O)C4CC5C(C4)C5(C)C)cc(Br)cc3[N+](=O)[O-])C(F)(F)C2)c1 (centres unmarked) | 10 to 50

Reference: patent US20250042889A1, “3CLPRO PROTEASE INHIBITOR” (SHANGHAI QILU PHARMACEUTICAL RESEARCH AND DEVELOPMENT …, priority 2021, published 2025)
